This data set can be described thus: Eight-day duplicate diet case study, 24 h urine of one volunteer (LC-MS/MS).

Each structure is given as a SMILES string.

Take `CC1=CC2OC3C(OS(=O)(=O)O)CC(C)(C34CO4)C2(CO)C(O)C1=O` (centres unmarked): the D3S excretion rate came out at 3.5% (Average of days 3-6); 4.3% (Day 3, excreted DON-3-sulfate in μmol / DON intake in μmol * 100); 2.1% (Day 4, excreted DON-3-sulfate in μmol / DON intake in μmol * 100); 3.5% (Day 5, excreted DON-3-sulfate in μmol / DON intake in μmol * 100); 4.3% (Day 6, excreted DON-3-sulfate in μmol / DON intake in μmol * 100).

Values taken from article PMC5034337 (Scientific Reports, 2016).
